Pooled drug test results. Numbers come from NIAID ChemDB, via PubChem.

All rows: host cell toxicity; read-out: CC50

a–b is a range or a potency band.

| SMILES | cell line | read by | value |
|---|---|---|---|
| C[N+]1(C)CCN(c2ncnc(Cl)c2[N+](=O)[O-])CC1 | L929 |  | >500.5 µg/mL |
| Cc1cccc(CNC(=O)NC2N=C(c3ccccc3)c3ccccc3NC2=O)c1 | HEP-2 |  | 3 µM |
| CCCCCC(=O)OC1(C)c2ccccc2-c2c1c(-n1ccnc1)nc1ccc(Br)cc21 | U-937 | MTT | >10 µg/mL |
| Cc1cc(=O)c2ccc(N=C=S)cc2o1 | CEM-GFP | MTT | 10.23 µM |
| Nc1nc2c(ncn2COC(CO)CO)c(=O)[nH]1 | HSB-2 |  | 15 µg/mL |
| CCCCC#CCSc1ccccc1OC(C)=O | MDM |  | 100–200 µM |
| C=C(COCP(=O)(O)O)Cn1cnc2c(=O)[nH]c(N)nc21 | CrFK |  | >500 µM |
| Cc1ccc(C(O)c2cc(C34CC5CC(CC(C5)C3)C4)c3ccccc3n2)cc1 | Mouse fibroblasts | MTT / absorbance | >200 µg/mL |
| Clc1cc(/C=C/c2ccc3ccccc3c2)nc2ccccc12 | TZM-bl | MTT | 8.23 µM |
| CC1(O)c2ccccc2-c2c1c(-n1ccnc1)nc1ccc(Br)cc21 | U-937 | MTT | >10 µg/mL |
| NS(=O)(=O)c1cc([N+](=O)[O-])c(N(CCO)CCO)c([N+](=O)[O-])c1 | MDCK cells |  | >80 µM |
| CC1CCCCC1c1cc(C(=O)NN)nc2ccccc12 | Mouse fibroblasts | MTT / absorbance | >200 µg/mL |
| C[C@@H]1CC[C@H]2[C@@H](C)C(=O)O[C@@H]3OC4(C)CC[C@@H]1[C@]32OO4 | EBTR |  | >100 µM |
| CSc1nc(Cl)c([N+](=O)[O-])c(N2CC[N+]3(CC2)CC[N+]2(CCN(c4nc(SC)nc(Cl)c4[N+](=O)[O-])CC2)CC3)n1 | K562 |  | >263.7 µg/mL |
| CN(O)C(=O)CC(c1ccccc1)P(=O)(O)O | MRC-5 | fluorescence | >64 µM |
| O=[N+]([O-])c1cc(C(F)(F)F)cc([N+](=O)[O-])c1N1COC1 | MDCK cells |  | >80 µM |
| O=c1cc(N2CCOCC2)oc2c(-c3ccccc3)cccc12 | Akata | MTS | 6.16 µM |
| O=C(Nc1cccc(Cl)c1Cl)NC1N=C(c2ccccc2)c2ccccc2NC1=O | HEP-2 |  | 2 µM |
| O=C(NNC(=O)c1ccccc1S)c1ccccc1S | HuT-78 |  | >100 µM |
| O=C(NC1N=C(c2ccccc2)c2ccccc2NC1=O)c1ccccc1F | HEP-2 |  | 9.5 µM |
| CC(=O)N(O)CCCP(=O)(O)O | MRC-5 | fluorescence | >59 µM |
| COC(=O)c1cc([N+](=O)[O-])c(N2CCN(C)CC2)c([N+](=O)[O-])c1 | MDCK cells |  | 157 µM |
| OC(CCl)CN1CC[N+]2(CC1)CC[N+]1(CCN(CC(O)CCl)CC1)CC2 | GMK |  | >1040 µg/mL |
| CCCCCC(=O)O/N=C1\c2ccccc2-c2c1c(-n1ccnc1)nc1ccc(Br)cc21 | U-937 | MTT | >10 µg/mL |
| COc1ncnc(N2CC[N+]3(CC2)CC[N+]2(CCN(c4ncnc(OC)c4[N+](=O)[O-])CC2)CC3)c1[N+](=O)[O-] | K562 |  | >304.2 µg/mL |
| Cc1cn([C@H]2C[C@H](N=[N+]=[N-])[C@@H](CO)O2)c(=O)[nH]c1=O | TZM-bl | MTT | 2890 µM |
| O=C(NC1N=C(c2ccccc2)c2ccccc2NC1=O)c1ccccc1O | HEP-2 |  | 8.7 µM |
| Cc1ccc(-c2ccc3c(c2)C=C(C(=O)Nc2ccc(C[N+](C)(C)C4CCOCC4)cc2)CCC3)cc1 | THP-1 |  | ~50 µM |
| CC(C)[C@H](C)/C=C/C(C)[C@H]1CCC2C3=C(CC[C@@]21C)[C@@]1(C)CCC(=O)C=C1C=C3 | L6 | MTT | 27 µM |
| COc1cc([C@H]2OC[C@H]3[C@@H]2CO[C@H]3c2cc(OC)c3c(c2)OCO3)cc2c1OCO2 | HOG.R5 |  | >20 µg/mL |
| C[C@H]1[C@H](C)CC[C@]2(C(=O)O)CC[C@]3(C)C(=CC[C@@H]4[C@@]5(C)CC[C@H](O)C(C)(C)[C@@H]5CC[C@]43C)[C@H]12 | L6 cells | MTT | 12.7 µM |
| OC[C@H]1O[C@@H](n2cnc3c(NC4CCCC4)cc(Cl)nc32)[C@H](O)[C@@H]1O | Sheep chondrocytes G81092 | MTT | 260 µM |
| COC1CCC(c2cc(C(=O)NN)nc3ccccc23)CC1 | Mouse fibroblasts | MTT / absorbance | >200 µg/mL |
| Fc1ccc(/C=C/c2cc(Cl)c3ccccc3n2)c(C(F)(F)F)c1 | TZM-bl | MTT | 29.06 µM |
| CCCC(O)c1cc(C23CC4CC(CC(C4)C2)C3)c2ccccc2n1 | Mouse fibroblasts | MTT / absorbance | >200 µg/mL |
| NC(=O)C(c1ccccc1)(c1ccccc1)[C@H]1CCCN(CCc2ccc3c(c2)CCO3)C1 | PM1 | XTT | 60 µM |
| COc1cc2c(cc1OC)-c1c3c(cc4ccnc(c14)C2=O)OCO3 | P-388 | sulforhodamine / absorbance | 9.6 µM |
| c1cnc2c(c1)ccc1cccnc12 | J774A.1 | absorbance | ≤50 µM |
| O=C(O)c1cc([N+](=O)[O-])c(N2CCOCC2)c([N+](=O)[O-])c1 | MDCK cells |  | >80 µM |
| Nc1nc(=O)n([C@@H]2CS[C@H](CO)O2)cc1F | CFU-GM |  | 50 µM |
| O=C1Cc2c([nH]c3ccc(Br)cc23)-c2ccccc2N1 | Akata | MTS | 5.127 µM |
| Cc1cc(N2CC[N+](C)(C)CC2)c([N+](=O)[O-])c(N2CC[N+](C)(C)CC2)c1 | GMK |  | >322.9 µg/mL |
| CCCNc1c([N+](=O)[O-])cc(S(N)(=O)=O)cc1[N+](=O)[O-] | MDCK cells |  | 36.6 µM |
| Clc1cc(/C=C/c2ccc(N3CCOCC3)cc2)nc2ccccc12 | TZM-bl | MTT | 47.89 µM |
| COC[C@@H](c1ccc(C(F)(F)F)cc1)N1CCN(C2(C)CCN(C(=O)c3c(C)ncnc3C)CC2)C[C@@H]1C | PM1 | MTT / absorbance | >5 µM |
| CC(C)(C)OC(=O)NC(Cc1cccc(F)c1)C(=O)O/N=C1\c2ccccc2-c2c1c(N1CCN(c3ccccn3)CC1)nc1ccc(Br)cc21 | U-937 | MTT | >20 µg/mL |
| COc1ccc2c(c1)C(OC(C)C)=C(C(N)=O)S2=O | OM-10.1 | thymidine uptake / radiometric | >10 µM |
| NS(=O)(=O)c1cc([N+](=O)[O-])c(Nc2ccccc2)c([N+](=O)[O-])c1 | MDCK cells |  | 153 µM |
| CCCCCCCCCCCCCCCCCCOC[C@@H](O)COP(=O)(O)CC(=O)O | MRC-5 |  | 32–100 µM |
| Nc1ncnc2c1ncn2C[C@@H](CO)OCP(=O)(O)O | HSB-2 |  | 14 µg/mL |
| Nc1nc2c(ncn2CCOCP(=O)(O)O)c(=O)[nH]1 | CrFK |  | 5.6 µM |
| O=C(CCCl)NN1CC[N+]2(CC1)CC[N+]1(CCN(NC(=O)CCCl)CC1)CC2 | GMK |  | >393.5 µg/mL |
| NNC(=O)c1cc(C23CC4CC(CC(C4)C2)C3)c2ccccc2n1 | Mouse fibroblasts | MTT / absorbance | >200 µg/mL |
| CCC(CC)Nc1c([N+](=O)[O-])cc(C(F)(F)F)cc1[N+](=O)[O-] | MDCK cells |  | 185 µM |

An empty or dashed field is not shown. Conditions beyond the fields shown may differ between rows. CCn: concentration that lowers growth or viability of the cells by n%.